# Library screen at single concentrations

Mtb glucose medium: 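Whole-cell growth test on Mycobacterium tuberculosis, read after 3 days in glucose-containing 7H9 medium; the read-out is not stated. Tested at 50 µM. Direction is inferred from retests: higher values go with more growth inhibition. About 69,000 compounds were tested under these conditions; 1.1% (about 760) showed 50% or more at least once.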
Mtb cholesterol medium: 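Phenotypic screen: M. tuberculosis growth, cholesterol and DPPC medium, 4 days; the read-out is not stated. Tested at 50 µM. Direction is inferred from retests: higher values go with more growth inhibition. Size under these conditions: about 69,000 compounds, about 370 of them at 50% or above in at least one test.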

The filed quantity is “Percent Effect” (%). The record does not define 0% and 100%; most values in the screen are far below 50% and negative numbers occur (in some assays of this library far below -100). This is part of a subset picked to be rich in strong results. Two or more numbers in one place are separate tests of the same structure; such repeats can differ widely. A dash means the value is not listed here; it may have been measured.

SMILES	Mtb glucose medium	Mtb cholesterol medium
Cc1cccc(CNC(Cc2ccsc2)c2nc(C)c(C)s2)n1.Cl (stereo unspecified)	63.49	-
Cc1nn(-c2ccccc2)c2nc(C(C)(C)CN3CCN(C)CC3)[nH]c12	20.3	-
CCc1nccn1CCNC1CCN(c2nc3ccc(Cl)cc3s2)CC1	77.71	66.07
Cc1cc(C)n(CC(C)NC(=O)C2(c3ccccc3F)CC2)n1 (stereo unspecified)	-14.26	-8.196
Cc1cccc(NCc2ncc(C(C)(C)C)o2)c1	28.57 and 33.2	-
OC(CN1CCCCCCC1)c1ccc(F)cc1 (stereo unspecified)	0.9823	-
CC(C)NC(=O)c1csc(NC2CC2)n1	19.86	-
CN(Cc1nnc(-c2cccs2)o1)C(C(N)=O)c1cccc(F)c1 (stereo unspecified)	-9.696	-
O=C(CCSc1ccc2c(c1)OCCO2)NCC1CCS(=O)(=O)C1 (stereo unspecified)	-33.94	8.968
CCCN(CC)c1cc(C2CCNCC2)nc(C)n1	6.601	-
CCn1cc(CN(C)S(=O)(=O)c2ccccc2)cn1	26.86	-
Cc1cc(N2CCOCC(Cc3ccc4[nH]ccc4c3)C2)ncn1 (stereo unspecified)	42	-
N#Cc1cccc(OC23CCCN(CC2)C3)c1 (stereo unspecified)	-2.537 and -34.25	-15.56
Cc1nc(N(C)C)ncc1C(=O)NCCCn1nccc1C1CC1	-	-9.453 and -19.34
CCC1CN(CC(=O)NCCN2CCCC2)c2ccccc2S1 (stereo unspecified)	34.06	-
Cc1n[nH]c(C)c1CCNC(=O)C1CCCN(CC(N)=O)C1 (stereo unspecified)	-	20.47
COc1ccc(CN2CCC(C(N)=O)C2)c(Br)c1OC (stereo unspecified)	-4.458 and -14.44	-
CCCc1nc(N2CCCCCC2)c2c(n1)c(C)nn2CC	24.41 and 68.07	-
CC(=O)N1CCCC1c1nnn2cc(NCc3cccnc3)ccc12.O=C(O)C(F)(F)F.O=C(O)C(F)(F)F (stereo unspecified)	-	-1.414 and -23.68
Cc1ccc(C(C)N(C)CCS(=O)(=O)CCC(N)=O)cc1 (stereo unspecified)	12.19	0.6981
CNC1CCN(C2CCN(c3ccc(-c4ccco4)cc3)CC2)CC1	63.29 and 32.16	-
CC(=O)N1CCN(C(=O)c2ccc(-c3cccc(C)c3)[nH]c2=O)CC1	-8.653 and -11.65	-
CC(C)COc1cncc(NCC(O)c2ccco2)n1 (stereo unspecified)	-21.23	-
O=C(c1[nH]nc(C2CC2)c1Cl)N1CCN(C2CC2)C(=O)C1	-	16.7
Cc1cc(CN2CCCC2c2noc(C)n2)no1 (stereo unspecified)	4.667	-
Cc1nc(-c2cccc(N3CCC(N4CCCC(C#N)C4)CC3)c2)cs1 (stereo unspecified)	-32.62	-
CCC1CCCCCN1C(=O)c1coc(S(=O)(=O)N(C)C)c1 (stereo unspecified)	10.76 and 2.213	-
Cc1cc(CN2CCCC2c2noc(C3CC3)n2)c2ccccc2n1 (stereo unspecified)	13.51	-
O=C(c1ccncc1)N(CCO)Cc1cc(Br)ccc1F	9.157 and 1.081	-
CCc1nc(C)c(C(=O)NCCN2CCCC2)s1	0.9306	-
COC(=O)c1ccc(-c2noc(CN(CCO)Cc3cccs3)n2)cc1	75.78	-
CCOc1ccc(N2CCCN=C2NC(=O)c2ccc(OC)cc2)cc1	-4.42	-
[H][C@]12CC[C@]([H])(CN(Cc3[nH]cnc3C)C1)N(Cc1ccc(C)o1)C2	4.358 and -34.75	-
Nc1cc(N2CCOCC(Cc3ccc4[nH]ccc4c3)C2)ncn1 (stereo unspecified)	66.33	-
CSCCC1c2nc[nH]c2CCN1Cc1[nH]c2ccc(F)cc2c1C (stereo unspecified)	28.8 and 62.3	-
CS(=O)(=O)N1CCC(CSc2ccccc2)C1 (stereo unspecified)	14.15	-
Cc1ncc(CN(C)CC(O)c2ccc(OC(F)(F)F)cc2)s1 (stereo unspecified)	-	35.77
CCN(Cc1cccs1)S(=O)(=O)N(C)C(C)C	-1.995 and 4.914	-
CCCNC(=O)c1cc(C(C)C)nc(N2CCCC2)n1	93.74	-
CN(Cc1ccccc1)C(=O)CCN1C[C@H](C2CC2)[C@@H](N(C)C)C1	-31.97 and -1.381	-
Cc1ccc(Oc2c(F)cccc2OC[C@@H](N)CC(C)C)cc1	87.35	74.14
Cn1ccnc1CN1CCC2(CC(=O)N(c3cncnc3)C2)C1.O=C(O)C(F)(F)F (stereo unspecified)	62.97	-

Measurements from “University of Dundee, Small-Polar-MMV Screening Library” (2021), ChEMBL document CHEMBL3988442.